Measured values published in article PMC5544767.
The exact form of at least one protein or probe is not confirmed.

Assays:
[1] = biological target: Crp (cAMP receptor protein), His-tagged (UniProt B4EZ60); assay: EMSA; conditions: 50 uM cAMP, unlabeled fragment competes, EMSA: 150 mM KCl, 10 mM MgCl2, 30 mM Tris-HCl pH 8.0, 50 uM cAMP, room temperature 30 min, recombinant protein, residues 1-210, protein details: His-tag, pET32a(+) (vector fusion not detailed), label: IRDye 700, probe letters rebuilt from the primers and the genome, part of a longer molecule
[2] = biological target: Crp (cAMP receptor protein), His-tagged (UniProt B4EZ60); assay: DNase I footprinting; conditions: 50 uM cAMP, 512 nM Crp, poly(dI-dC), footprint: 10 mM Tris-HCl pH 7.5, 0.1 mM EDTA, 5.5 mM MgCl2, 20 ug/ml poly(dI-dC), 0.2 mg/ml BSA, room temperature 30 min, recombinant protein, residues 1-210, protein details: His-tag, pET32a(+) (vector fusion not detailed), label: 5' FAM (T7 primer), probe letters rebuilt from the primers and the genome, part of a longer molecule

“AGGCTTTTGCTGATTTGACCAAAATCGATAGCTTGGTTAGCACTTTCGGTAGCAATACCACAAGGTGCATCAATAACTTTACCAGTGAAAGTAATAGTACCATCACCTGAAGCCGCTTGAGCAACAGTCGCAGAAAAAGCCATTGATGCAATAGCGAACATCGCTAATTTATTCAATTTCATATTTTTACCTTTATATTTAACGTAGGAATTAAAGCGTTAAAAAATTAACTATGATATATAGTTACACACATTATCCTCATCCCATCCAGAGATGATATTGTTACTTCCATTACTTTTAAAAACTTATGACTATTTAAATTTTTATATAAAATTTAAACTGTATTTATACAGATGATATAAATCATCTAAACACGCAAATAGAATGGAAACGAATCACTATTTTTTAATTTATGTTTTATAATATCTACGACAAGAACTTTTCGATAAAACTCAGACCAGTCAGCATCCAATAATTTTAATATCATATCTAATGTTTCAATATTGATACTTGTTATTCCATTTTCATATCTTGATATTTGTTGCTGACTCACATCAAGTAATTCGCCTAATTGGGCTCCTGTTAGAGATTTACGTA (double strand) [pmpA promoter fragment (EMSA)]”: binds ([1]; 0-2 uM Crp).
“AGGCTTTTGCTGATTTGACCAAAATCGATAGCTTGGTTAGCACTTTCGGTAGCAATACCACAAGGTGCATCAATAACTTTACCAGTGAAAGTAATAGTACCATCACCTGAAGCCGCTTGAGCAACAGTCGCAGAAAAAGCCATTGATGCAATAGCGAACATCGCTAATTTATTCAATTTCATATTTTTACCTTTATATTTAACGTAGGAATTAAAGCGTTAAAAAATTAACTATGATATATAGTTACACACATTATCCTCATCCCATCCAGAGATGATATTGTTACTTCCATTACTTTTAAAAACTTATGACTATTTAAATTTTTATATAAAATTTAAACTGTATTTATACAGATGATATAAATCATCTAAACACGCAAATAGAATGGAAACGAATCACTATTTTTTAATTTATGTTTTATAATATCTACGACAAGAACTTTTCGATAAAACTCAGACCAGTCAGCATCCAATAATTTTAATATCATATCTAATGTTTCAATATTGATACTTGTTATTCCATTTTCATATCTTGATATTTGTTGCTGACTCACATCAAGTAATTCGCCTAATTGGGCTCCTGTTAGAGATTTACGTA (double strand) [pmpA promoter fragment (footprint)]”: binds [2].
“GGGTAGATTCGCTTATTAATTCTCAGCAAGTTTTATTACTAATATTACTTGAATAGTTAATGAACTAATTCCATAATAATGATTATCTTTTTGTGATGTAACTCACATAGTATTTAAATTAGACTACTTTATCCGTTGAATAACTTAATCATTAAGGAGTAAAGTTATCTCGTTAGGATTATTCTTAACGTGATATATTGGCGAGCATTTAAAATCCTTTTTAATTTAAATGTTTTTCTCGCTACTTTTTGAAATGATCGTAATCAAGTAATACAAGGTAGTGTTACTACGAGTCATATTCATAAAATGGGGCCTGGAAATTCAATATACATTTATATTAATTTCCTCGGGATCTTACTTTAAACAAGATCCTCTTTGTTCAATATAATCGGACGGGATGTAAAGAG (double strand) [flhDC promoter fragment]”: binds ([1]; 0-0.5 uM Crp).
